Legend:
[1] = target: SARS-CoV-2-S-RBD-mmH (RBD of SARS-CoV-2 spike, amino acids 319-541, with a 6x histidine tag and two (SARS-CoV-2)); assay: ELISA, RBD-mmH coated, supernatant 1:40, a-mFc detection
[2] = target: human FcγR3a 176Val allotype receptor (human, UniProt P08637 17-254); assay: cell-based or functional assay
[3] = target: SARS-CoV-2 spike protein (S-wt, Wuhan-Hu-1, NCBI Accession Number MN908947.3) on VSV pseudoparticles (SARS-CoV-2, UniProt P0DTC2 14-1273); assay: cell-based or functional assay
[4] = target: receptor binding domain (RBD) portion of the SARS-CoV-2 Spike protein (amino acids Arg319-Phe541) ex (SARS-CoV-2)
[5] = target: SARS-COV-2 RBD extracellular domain expressed with a C-terminal mouse IgG2a (SARS-COV-2 RBD-mFc) (SARS-CoV-2); assay: SPR, captured mAb, RBD-mFc in solution, 37 C
[6] = target: T1, MERS-CoV (NCoV/Novel coronavirus) Spike Protein S1 Protein (aa 1-725, His Tag) (Sino 40069-V08B1) (MERS-CoV, UniProt K9N5Q8 18-725); assay: Luminex, supernatant
T1 sequence: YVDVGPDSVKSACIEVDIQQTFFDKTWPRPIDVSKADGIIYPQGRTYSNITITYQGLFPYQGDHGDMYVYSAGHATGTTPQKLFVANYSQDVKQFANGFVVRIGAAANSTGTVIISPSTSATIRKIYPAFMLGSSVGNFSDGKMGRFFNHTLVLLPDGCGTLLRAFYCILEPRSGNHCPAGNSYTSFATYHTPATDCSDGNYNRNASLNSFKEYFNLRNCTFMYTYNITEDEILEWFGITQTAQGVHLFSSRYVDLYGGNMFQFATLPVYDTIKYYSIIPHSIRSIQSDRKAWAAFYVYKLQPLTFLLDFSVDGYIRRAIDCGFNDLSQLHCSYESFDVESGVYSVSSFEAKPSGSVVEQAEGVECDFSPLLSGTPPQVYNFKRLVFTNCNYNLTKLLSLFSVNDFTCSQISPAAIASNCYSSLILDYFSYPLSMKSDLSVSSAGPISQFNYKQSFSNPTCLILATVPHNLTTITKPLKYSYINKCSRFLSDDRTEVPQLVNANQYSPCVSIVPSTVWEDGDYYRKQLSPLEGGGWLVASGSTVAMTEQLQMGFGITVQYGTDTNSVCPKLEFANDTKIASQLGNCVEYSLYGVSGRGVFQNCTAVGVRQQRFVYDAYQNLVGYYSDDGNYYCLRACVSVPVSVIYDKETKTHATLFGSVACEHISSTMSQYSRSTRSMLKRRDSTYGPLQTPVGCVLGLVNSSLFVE

MERS.mFc (mAb2663-L1) = MERS.mFc (mAb2663-L1) (MERS-CoV); assay: Luminex, supernatant
MERS.hFc (mAb2664-L1) = MERS.hFc (mAb2664-L1) (MERS-CoV); assay: Luminex, supernatant
Bt-MERS.hFc (mAb2664-L2) = Bt-MERS.hFc (mAb2664-L2) (MERS-CoV); assay: Luminex, supernatant

B1: mAb11004 (antibody, V domains shown)
VH: QVQLVESGGGVVQPGRSLRLSCVASGFTFSIYGMDWVRQAPGKGLEWVAVISYDGSNKYYADSVKGRFTISRDNSKNTLYLQMNSLRPEDTAVYYCAKDREAAADAFDIWGQGTMVTVSS
VL: DIQMTQSPSSVSASVGDRVTITCRASQGISSWLAWYQQKPGKAPKLLIYAASSLHSGVPSRFSGSGSGTDFTLTISSLQPEDFATYYCQQANSFRLTFGGGTKVEIKR
In the case of B1, the “Binding Signal (absorbance at 450 nm)” value [1] is reported as 2.91 absorbance at 450 nm.

B2: mAb10982 (antibody)
heavy: not shown
light: QSVLTQPPSVSGAPGQRVTISCTGSSSNIGTGYDVHWYQQLPGTAPKLLIYGNSNRPSGVPDRFSGSKSGTSASLAITGLQAEDEADYYCQSYDSSLSGYVVFGGGTKLTVLGQPKAAPSVTLFPPSSEELQANKATLVCLISDFYPGAVTVAWKADSSPVKAGVETTTPSKQSNNKYAASSYLSLTPEQWKSHRSYSCQVTHEGSTVEKTVAPTECS
For B2, the “ADCC Mean RLU (surrogate reporter assay, spike-expressing target cells)” value (“ADCC Mean RLU” for short) [2] was 7900 RLU.

B3: mAb10985 (antibody)
heavy: not shown
light: QSVLTQPPSVSGAPGQRVTISCTGSSSNIGAGYDVHWYQQLPGTAPKLLIYGNSNRPSGVPDRFSGSKSGTSASLAITGLQAEDEADYYCQSYDSSLSGSYVFGTGTKVTVLGQPKAAPSVTLFPPSSEELQANKATLVCLISDFYPGAVTVAWKADSSPVKAGVETTTPSKQSNNKYAASSYLSLTPEQWKSHRSYSCQVTHEGSTVEKTVAPTECS
In the case of B3, the “ADCC Mean RLU” value [2] is reported as 5840 RLU.

B4: mAb10982 (antibody, V domains shown)
VH: EVQLVESGGGLVQPGGSLRLSCAASGLTVSSNYMSWVRQAPGKGLEWVSVIYSGGTTYYADSVKGRFTISRHNSKNTLSLQMNSLRAEDTAVYYCARGEGANYYGMDVWGQGTTVTVSS
VL: QSVLTQPPSVSGAPGQRVTISCTGSSSNIGTGYDVHWYQQLPGTAPKLLIYGNSNRPSGVPDRFSGSKSGTSASLAITGLQAEDEADYYCQSYDSSLSGYVVFGGGTKLTVLG
In the case of B4, the “IC50 (M), neutralization” value [3] is reported as 3.69e-10 M.

B5: mAb10998 (antibody, V domains shown)
VH: EVQLVESGGGLVHPGGSLRLSCAASGLTVSSNYMSWVRQAPGKGLEWVSVIYSGGSTYYADSVKGRFTISRHNSKNTLFLQMNSLRAEDTAVYYCARDRPITGTTLDVWGQGTTVTVSS
VL: DIQMTQSPSSLFASVGDRVTITCRASQSISSYLNWYQQKPGKAPKLLIYAASSLQSGVPSRFSGSGSGTDFTLTISSLQPEDFAFYYCQQTYSTPPITFGQGTRLEIKR
With B5 the “Binding Signal (absorbance at 450 nm)” value [1] was 2.83 absorbance at 450 nm.

B6: mAb10922 (antibody, V domains shown)
VH: EVQLVESGGGLVQPGGSLRLSCAASGFTFSIYEMNWVRQAPGKGLEWVSYITSSGTTIYYADSVKGRFTISRDNAKNSLYLQMNSLRAEDTAVYYCASSSSSGYYFDYWGQGTLVTVSS
VL: not shown
B6 was tested, and the IC50 [4] was 0.0665 nM and the “30 nM Ag Bound (RU)” value [5] was 97 RU.

B7: mAb10922 (antibody, V domains shown)
VH: EVQLVESGGGLVQPGGSLRLSCAASGFTFSIYEMNWVRQAPGKGLEWVSYITSSGTTIYYADSVKGRFTISRDNAKNSLYLQMNSLRAEDTAVYYCASSSSSGYYFDYWGQGTLVTVSS
VL: not shown
B7 showed an MFI [6] of 22 MFI, an MFI (MERS.mFc (mAb2663-L1)) of 20 MFI and an MFI (MERS.hFc (mAb2664-L1)) of 21 MFI. For the same binder, the MFI (Bt-MERS.hFc (mAb2664-L2)) was 24 MFI.

B8: mAb10984 (antibody)
heavy: not shown
light: QSVLTQPPSVSAAPGQKVTISCSGSSSNIGNNYVSWYQQLPGTAPKLLIYDNNKRPSGIPDRFSGSKSGTSATLGITGLQTGDEADYYCGTWDSSLSAGVFGGGTKLTVLGQPKAAPSVTLFPPSSEELQANKATLVCLISDFYPGAVTVAWKADSSPVKAGVETTTPSKQSNNKYAASSYLSLTPEQWKSHRSYSCQVTHEGSTVEKTVAPTECS
With B8 the “ADCC Mean RLU” value [2] was 6780 RLU.

B9: mAb10971 (antibody, V domains shown)
VH: EVQLVESGGGLIQPGGSLRLSCAASGVTVSSNYMSWVRQAPGKGLEWVSVIYSGGSTFYSDSVKGRFSISRDNSKNTLYLQMNSLRAEDTAVYYCARDLYYYGMDVWGQGTTVTVSS
VL: DIQLTQSPSFLSASVGDRVTITCRASQGISTYLAWYQQKPGKAPKLLIYAASTLQSGVPSRFSGSGSGTEFTLTISSLQPEDFATYYCQQLDSYPGLTFGGGTKVEIKR
In the case of B9, the “IC50 (M), neutralization” value [3] is reported as 1.55e-10 M.

B10: mAb10913 (antibody)
heavy: not shown
light: QSVLTQPPSVSAAPGQKVTISCSGSSSNIGNNYVSWYQQLPGTAPKLLIYDNNKRPSGIPDRFSGSKSGTSATLGITGLQTGDEADYYCGTWDSSLSVGRVFGTGTKVTVLGQPKAAPSVTLFPPSSEELQANKATLVCLISDFYPGAVTVAWKADSSPVKAGVETTTPSKQSNNKYAASSYLSLTPEQWKSHRSYSCQVTHEGSTVEKTVAPTECS
In the case of B10, the “ADCC Mean RLU” value [2] is reported as 11500 RLU.

B11: mAb11006 (antibody, V domains shown)
VH: EVQLVESGGGLVQPGGSLRLSCAASGFIVSRNYMSWVRQAPGKGLEWVSVIYSGGSTFYADSVKGRFTISRHNSKNTLYLQMNSLKAEDTAVYYCARELRGYFDYWGQGTLVTVSS
VL: DIQLTQSPSFLSASVGDRVTITCWASQGISSYLAWYQQKPGKAPKLLIYAASTLQSGVPSRFSGSGSGTEFTLTISSLQPEDFATYYCQLLNSYPYTFGQGTKLEIKR
In the case of B11, the “Binding Signal (absorbance at 450 nm)” value [1] is reported as 2.62 absorbance at 450 nm.

B12: mAb11008 (antibody, V domains shown)
VH: EVQLVESGGGLVQPGGSLRLSCAASGFTVSSNYMTWVRQAPGKGLEWVSVIYSGGSTFYADSVKGRFTISRHNSENTLYLQMNSLRAEDTAVYYCARDLAAAGTDYWGQGALVTVSS
VL: DIQLTQSPSFLSASVGDRVTITCWASQGISSYLAWYQQKPGKAPKLLIYAASTLQSGVPSRFSGSGSGTEFTLTISSLQPDDFATYYCQHLNSYLYTFGQGTKLEIKR
B12 was tested, and the “Binding Signal (absorbance at 450 nm)” value [1] was 2.91 absorbance at 450 nm.

Source: US20240043504A1 (published 2024)
